Values from PubChem BioAssay AID1259414 (Drosophila RNAi Screening Center, 2018).

Aim: 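Genome-wide screen for host control of endosymbiont load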 (primary screen)
Cells: Drosophila JW18 cells infected with Wolbachia
Reagent: long dsRNA against Drosophila genes, 0.25 µg dsRNA per well of a 384-well plate
Duration: 5 days
Challenge: cells persistently infected with Wolbachia before knock-down; no added drug
Measurement: 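Imaged fluorescence in situ signal for Wolbachia 23S rRNA per DAPI-counted host cell, given as a robust z-score within each plate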
Scale: Wolbachia per cell robust z: higher = more Wolbachia per host cell than the plate typical
Hit rule: 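Hit when robust z is 1.5 or more, or -1.5 or less, in at least two of three replicates; excludes dsRNAs with several or no targets, genes not expressed in JW18 and well A1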
The deposit covers about 24,000 reagents; this is an unselected part of those with a known target gene and a result. Over the whole deposit, about 1,210 (5%) got an active call. 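Inactive calls also include excluded dsRNAs with several or no targets, genes unexpressed in JW18, and well A1, regardless of score.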 A number with no mark means an inactive call.

Obp56d (Odorant-binding protein 56d) [DRSC06064] → Wolbachia per cell robust z, rep 1 = -1.33; Wolbachia per cell robust z, rep 2 = -0.806; Wolbachia per cell robust z, rep 3 = -0.23
CG31815 [DRSC01548] → Wolbachia per cell robust z, rep 1 = -0.00584; Wolbachia per cell robust z, rep 2 = 0.0625; Wolbachia per cell robust z, rep 3 = -0.348
CG31815 [DRSC29263] → Wolbachia per cell robust z, rep 1 = -0.136; Wolbachia per cell robust z, rep 2 = -0.428; Wolbachia per cell robust z, rep 3 = 0.403
CG42764 [DRSC40539] → Wolbachia per cell robust z, rep 1 = 0.28; Wolbachia per cell robust z, rep 2 = -1.22; Wolbachia per cell robust z, rep 3 = 0.21
CG42764 [DRSC40540] → Wolbachia per cell robust z, rep 1 = 0.649; Wolbachia per cell robust z, rep 2 = -2.65; Wolbachia per cell robust z, rep 3 = -1.76

Reprinted from above for reference:
CG31815 [DRSC29263] → Wolbachia per cell robust z, rep 1 = -0.136; Wolbachia per cell robust z, rep 2 = -0.428; Wolbachia per cell robust z, rep 3 = 0.403
CG42764 [DRSC40539] → Wolbachia per cell robust z, rep 1 = 0.28; Wolbachia per cell robust z, rep 2 = -1.22; Wolbachia per cell robust z, rep 3 = 0.21

Next reagents follow:
CG6094 [DRSC02927] → Wolbachia per cell robust z, rep 1 = 0.219; Wolbachia per cell robust z, rep 2 = -0.103; Wolbachia per cell robust z, rep 3 = 0.253
CG6094 [DRSC22705] → Wolbachia per cell robust z, rep 1 = 0.486; Wolbachia per cell robust z, rep 2 = 0.652; Wolbachia per cell robust z, rep 3 = -0.997
CG6094 [DRSC29084] → Wolbachia per cell robust z, rep 1 = -0.974; Wolbachia per cell robust z, rep 2 = -0.858; Wolbachia per cell robust z, rep 3 = -0.0324
Pp1-13C (Protein phosphatase 1 at 13C) [DRSC20269] → Wolbachia per cell robust z, rep 1 = 1.93; Wolbachia per cell robust z, rep 2 = 2.08; Wolbachia per cell robust z, rep 3 = 2.37
Pp1-13C (Protein phosphatase 1 at 13C) [DRSC23305] → Wolbachia per cell robust z, rep 1 = -1.13; Wolbachia per cell robust z, rep 2 = 0.000861; Wolbachia per cell robust z, rep 3 = -0.208
Pp1-13C (Protein phosphatase 1 at 13C) [DRSC27492] → Wolbachia per cell robust z, rep 1 = 0.217; Wolbachia per cell robust z, rep 2 = 0.212; Wolbachia per cell robust z, rep 3 = 0.884
Cep89 (Centrosomal protein 89kDa) [DRSC07110] → Wolbachia per cell robust z, rep 1 = 0.246; Wolbachia per cell robust z, rep 2 = -0.257; Wolbachia per cell robust z, rep 3 = 0.588
Cep89 (Centrosomal protein 89kDa) [DRSC29382] → Wolbachia per cell robust z, rep 1 = 1.11; Wolbachia per cell robust z, rep 2 = -0.203; Wolbachia per cell robust z, rep 3 = -0.201
scro (scarecrow) [DRSC17102] → Wolbachia per cell robust z, rep 1 = -0.102; Wolbachia per cell robust z, rep 2 = -1.78; Wolbachia per cell robust z, rep 3 = -0.748
Plod (procollagen lysyl hydroxylase) [DRSC10601] → Wolbachia per cell robust z, rep 1 = -3.71; Wolbachia per cell robust z, rep 2 = -0.46; Wolbachia per cell robust z, rep 3 = -0.63
Plod (procollagen lysyl hydroxylase) [DRSC10602] → Wolbachia per cell robust z, rep 1 = 1.29; Wolbachia per cell robust z, rep 2 = 0.629; Wolbachia per cell robust z, rep 3 = 1.07
